Compound potency records, mixed from different reports. Data source: NIAID ChemDB in PubChem.

Common to all: growth or infection tests; species: Mycobacterium tuberculosis

Inhibition is in % at the dose shown (toxicity tests: loss of growth or viability).

SMILES	endpoint	read by	cell line	strain or isolate	mutations	tested at	value
O=c1cccc2n1C[C@H]1C[C@@H]2CN2CCCC[C@H]12	MIC bound	BACTEC	-	H37Rv	-	-	>12.5 µg/mL
CCc1nc2c(F)cc(Cl)cn2c1C(=O)NCc1ccc(N2CCN(S(=O)(=O)C(F)(F)F)C=N2)c(F)c1	EC50	GFP	-	-	-	-	0.0026 µM
CN1CCOP(=O)(c2ccccc2)N1	MIC bound	BACTEC	-	H37Rv	-	-	>128 µg/mL
CCc1nc2ncc(C)cn2c1C(=O)NCc1ccc(N2CCN(S(=O)(=O)C(F)(F)F)C(C3CC3)=N2)cc1	EC50	GFP	-	-	-	-	0.0014 µM
CCN1CCc2c(sc(NC(=O)c3c(F)c(F)c(F)c(F)c3F)c2C(N)=O)C1	EC50	turbidity	-	ATCC 35838 RIF-R2 rifampicin-resistant	-	-	1.9 µM
CCn1cc(C(=O)O)c(=O)c2cc(F)c(N3CCN(C/C(=N/O)c4ccc(C)cc4)CC3)cc21	EC50	-	-	H37Rv	-	-	>6.25 µg/mL
NNC(=O)c1ccncc1	MIC	-	-	AZD5847-resistant 4.1	T460C Cys154Arg	-	0.06 µg/mL
CCC1Cn2cc([N+](=O)[O-])nc2O1	MIC	-	-	H37Rv-T3 (PA-824-resistant)	-	-	>100 µM
O=C([C@@H](O)CO)N1CC=C(c2c(F)cc(N3C[C@H](COc4ccon4)OC3=O)cc2F)CC1	MIC	-	-	linezolid resistant 8.7	T460C Cys154Arg	-	16 µg/mL
O=C(O)c1c(O)cc(=O)oc1-c1cccc(Cl)c1	inhibition	BACTEC	-	H37Rv	-	12.5 µg/mL	-14%
CCOC(=O)c1cn(CC)c2c(cc([N+](=O)[O-])c3cccnc32)c1=O	MIC90	-	-	H37Rv	gyrA mutation A90V gyrB mutation Q540V	-	>50 µM
CC(=O)NC[C@H]1CN(c2ccc(N3CCOCC3)c(F)c2)C(=O)O1	MIC	-	-	linezolid resistant 8.3	T460C Cys154Arg	-	16 µg/mL
CC[C@H]1OC(=O)[C@H](C)[C@@H](O[C@H]2C[C@@](C)(OC)[C@@H](O)[C@H](C)O2)[C@H](C)[C@@H](O[C@@H]2O[C@H](C)C[C@H](N(C)C)[C@H]2O)[C@](C)(OC)C[C@@H](C)C(=O)[C@H](C)[C@@H](O)[C@]1(C)O	MIC	-	-	ATCC 35826	-	-	8 µg/mL
Cn1cc(NC(=O)Nc2cc(C(=O)Nc3ccc4cc(S(=O)(=O)O)cc(S(=O)(=O)O)c4c3)n(C)c2)cc1C(=O)Nc1ccc2cc(S(=O)(=O)O)cc(S(=O)(=O)O)c2c1	MIC bound	BACTEC	-	H37Rv	-	-	>12.5 µg/mL
CCc1nc2nc3c(cn2c1C(=O)NCc1ccc(N2CCN(S(=O)(=O)C(F)(F)F)C=N2)c(F)c1)CCCC3	EC50	GFP	-	-	-	-	0.013 µM
CC1(C)CCc2nc(-c3ccc[nH]3)ccc2C1=O	MIC	-	-	H37Rv	-	-	25 µg/mL
CCc1nc2nc(N(C)C)c(Cl)cn2c1C(=O)NCc1ccc(N2CCN(S(=O)(=O)C(F)(F)F)C=N2)c(F)c1	EC50	GFP	-	-	-	-	0.2 µM
CO/C(=N\N=C\c1ccccc1)c1ccncc1	MIC	-	-	H37Rv	-	-	>20 µg/mL
CCCCNC(=O)c1c(N)sc2c1CCN(CC)C2	EC50	resazurin	-	H37Rv	-	-	>100 µg/mL
NCC[C@H](O)C(=O)N[C@@H]1C[C@H](N)[C@@H](O[C@H]2O[C@H](CN)[C@@H](O)[C@H](O)[C@H]2O)[C@H](O)[C@H]1O[C@H]1O[C@H](CO)[C@@H](O)[C@H](N)[C@H]1O	MIC	-	-	11S	-	-	2.5 µg/mL
COC(=O)c1cncc(N2CC(C)OC(C)C2)n1	MIC	-	-	Isoniazid-resistant	-	-	62.5 µg/mL
CNC(=S)SSC(=S)NCCNC(=S)SSC(=S)NC	MIC bound	resazurin	-	H37Rv	-	-	>6.25 µg/mL
CCOC(=O)c1c(NC(=O)c2c(F)c(F)c(F)c(F)c2F)sc2c1CCOC2	MIC	resazurin	-	H37Rv	-	-	0.1 µM
CSc1ccc(C2C(C(=O)Nc3ccccc3Cl)=C(C)NC(C)=C2C(=O)Nc2ccccc2Cl)cc1	inhibition	-	-	H37Rv	-	2.5 µg/mL	78%
C=C1C(=O)[C@@]23[C@H](O)C[C@@H]4C(C)(C)CCC[C@@]4(C)[C@@H]2CC[C@@H]1[C@H]3O	MIC	resazurin / absorbance	-	H37Rv	-	-	6.25–12.5 µg/mL
CCc1nc2c(F)cc(Cl)cn2c1C(=O)NCc1ccc(N2CCN(S(=O)(=O)C(F)(F)F)C(C(C)C)=N2)c(F)c1	EC50	GFP	-	-	-	-	0.0046 µM
NC(=O)c1cncc(-n2cncn2)n1	MIC	-	-	Capreomycin-resistant	-	-	2000 µg/mL
O=C(O)c1cnc2c(ccc3[nH]cccc32)c1=O	inhibition	BACTEC	-	H37Rv	-	12.5 µg/mL	-4%
C=C1C(=O)[C@@]23[C@@H]4C[C@H]5C(=CCC5(C)C)[C@@](C)(O4)[C@@H]2CC[C@@H]1[C@H]3O	MIC	resazurin / absorbance	-	H37Rv	-	-	25–50 µg/mL
CCOC(=O)c1c(NC(=O)c2c(F)c(F)c(F)c(F)c2F)sc2c1CCNC2=O	EC50	low oxygen	-	-	-	-	1.3 µM
CCCCCCCCCCCCC1C(=O)NCCNCCCNCCNC1=O	MIC bound	resazurin	-	H37Rv	-	-	>6.25 µg/mL
C[C@H]1COc2c(N3CCN(C)CC3)c(F)cc3c(=O)c(C(=O)O)cn1c23	MIC	-	-	1773-6	-	-	0.25 µg/mL
CC1CCCCN1c1cncc(C(N)=O)n1	MIC	-	-	Isoniazid-resistant	-	-	500 µg/mL
Nc1ccc2c(c1)N(C(=O)c1cc3cc(NC(=O)c4cc5ccccc5o4)ccc3[nH]1)CC2CCl	MIC bound	BACTEC	-	H37Rv	-	-	≤6.25 µg/mL
C=C1C(=O)[C@@]23[C@@H]4CC5=C(C(=O)CC5(C)C)[C@@](C)(O4)[C@@H]2CC[C@@H]1[C@H]3O	MIC	resazurin / absorbance	-	H37Rv	-	-	>50 µg/mL
O=[N+]([O-])c1cn2c(n1)OC[C@@H](OCc1ccc(OCc3ccccc3)cc1)C2	MIC	-	-	H37Rv-5A1 (PA-824-resistant)	-	-	>100 µM
O=C(CNN1CCOCC1)Nc1ccc(S(=O)(=O)c2ccc(NC(=O)CNN3CCOCC3)cc2)cc1	MIC bound	resazurin	-	H37Rv	-	-	>6.25 µg/mL
CC1CCCCN1c1cncc(C(=O)NO)n1	MIC	-	-	Ethionamide-resistant	-	-	122 µg/mL
CCN1CCc2c(sc(NC(=O)c3c(F)c(F)c(F)c(F)c3F)c2C(=O)NC)C1	MIC	low oxygen	-	-	-	-	50 µM
O=C1C[N+]2(CCCCC2)c2ccc(Cl)cc2N1	MIC bound	resazurin	-	H37Rv	-	-	>6.25 µg/mL
COc1ccccc1NC(=O)C1=C(C)NC(C)=C(C(=O)Nc2ccccc2OC)C1c1ccc(N(C)C)cc1	EC50	-	-	H37Rv	-	-	<2.5 µg/mL
O=C(CN1CCN(c2cc3c(cc2F)c(=O)c(C(=O)O)cn3C2CC2)CC1)c1ccccc1	MIC	-	VERO	H37Rv	-	-	0.78 µg/mL
CC[C@H]1OC(=O)[C@H](C)[C@@H](O[C@H]2C[C@@](C)(OC)[C@@H](O)[C@H](C)O2)[C@H](C)[C@@H](O[C@@H]2O[C@H](C)C[C@H](N(C)C)[C@H]2O)[C@](C)(O)C[C@@H](C)C(=O)[C@H](C)[C@@H](O)[C@]1(C)O	MIC90	-	-	DRUG-SUS	-	-	>8 µg/mL
NC(=S)c1cncc(-n2ccnc2)n1	MIC	-	-	Capreomycin-resistant	-	-	500 µg/mL
CSCSCC(CO)NC(=O)/C=C/c1c(C)[nH]c(=O)[nH]c1=O	inhibition	BACTEC	-	H37Rv	-	12.5 µg/mL	28%
CO/C(=N\N=C\c1ccc(Cl)cc1Cl)c1ccncc1	MIC	-	-	H37Rv	-	-	>20 µg/mL
C[C@@H]1CN(c2c(F)c(N)c3c(=O)c(C(=O)O)cn(C4CC4)c3c2F)C[C@H](C)N1	MIC	-	-	ATCC 35826	-	-	0.06 µg/mL
CCn1cc(C(=O)O)c(=O)c2cc(F)c(N3CCN(C/C(=N/O)c4ccc(OC)cc4)CC3)cc21	MIC	-	-	H37Rv	-	-	>6.25 µg/mL
c1ccc2c(c1)nc1cc(NC3CCCCC3)c(=NC3CCCCC3)cc-1n2C1CCCCC1	MIC	-	-	CS-R	-	-	3.1 µg/mL
CO[C@H]1/C=C/O[C@@]2(C)Oc3c(C)c(O)c4c(O)c(c5c(c4c3C2=O)NC2(CCN(CC(C)C)CC2)N=5)=NC(=O)/C(C)=C\C=C\[C@H](C)[C@H](O)[C@@H](C)[C@@H](O)[C@@H](C)[C@H](OC(C)=O)[C@@H]1C	MIC	-	-	Strain 63 (L521L)	-	-	0.03 µg/mL
CC1(C)CC(=O)c2ccc(-c3ccc4ccccc4c3)nc2C1	MIC	-	-	H37Rv	-	-	1.56 µg/mL
C/C=C1\CN2CCc3c([nH]c4ccccc34)C2CC1C(Cc1c[n+]2c(c3[nH]c4ccccc4c13)CC1C(C(=O)OC)=COC(C)C1C2)C(=O)OC	MIC	BACTEC	-	H37Rv	-	-	≥12.8 µg/mL
COc1ccc(/C(C)=N/NC(=O)c2ccncc2)cc1OC	MIC	-	-	H37Rv	-	-	>20 µg/mL
COC(=O)c1cc(-c2ccccc2)c2c(=O)n(-c3ccccc3)[nH]c2n1	MIC bound	BACTEC	-	H37Rv	-	-	>12.5 µg/mL
N#Cc1c(NC(=O)c2c(F)c(F)c(F)c(F)c2F)sc2c1CCOC2	MIC	turbidity	-	H37Rv	rpoB S522L mutant	-	10 µM
NNC(=O)c1ccncc1	MIC	-	-	PR441	-	-	5 µg/mL
CCOC(=O)c1ccc(-c2ccc(Br)cc2)nc1C	MIC	-	-	H37Rv	-	-	25 µg/mL
C[C@H]1COc2c(N3CCN(C)CC3)c(F)cc3c(=O)c(C(=O)O)cn1c23	MIC50	-	-	DRUG-SUS	-	-	0.25 µg/mL
CC1=C(C(=O)Nc2cc(C)ccc2C)C(c2ccccc2O)C(C(=O)Nc2cc(C)ccc2C)=C(C)N1	EC50	-	-	H37Rv	-	-	>2.5 µg/mL
CCn1cc(C(=O)O)c(=O)c2cc([N+](=O)[O-])c3cccnc3c21	MIC90	-	-	BCG	-	-	2.67 µM
CC1(C)CCc2nc(-c3ccc4ccccc4c3)ccc2C1=O	MIC	-	-	H37Rv	-	-	1.56 µg/mL
CCNC(=O)c1c(NC(=O)c2c(F)c(F)c(F)c(F)c2F)sc2c1CCN(CC)C2	MIC	turbidity	-	H37Rv	gyrA mutant (D94N)	-	9.8 µM
CC(=O)NC[C@H]1CN(c2ccc(N3CCN(c4ccc([N+](=O)[O-])s4)CC3)c(F)c2)C(=O)O1	MIC	-	-	SGPGI	-	-	0.25 µg/mL
CO[C@H]1/C=C/O[C@@]2(C)Oc3c(C)c(O)c4c(O)c(c(/C=N/N5CCN(C)CC5)c(O)c4c3C2=O)NC(=O)/C(C)=C\C=C\[C@H](C)[C@H](O)[C@@H](C)[C@@H](O)[C@@H](C)[C@H](OC(C)=O)[C@@H]1C	MIC	-	-	H37Rv	-	-	1 µg/mL
C/C(=N\NC(=O)c1ccncc1)c1cccc(F)c1	MIC	-	-	16PI	-	-	>20 µg/mL
NNC(=O)C(=O)N=Cc1ccc([N+](=O)[O-])o1	MIC	-	-	TAC-R	-	-	3.1 µg/mL
C=C1C[C@@]23CC[C@H]4[C@@](C)(CCC[C@]4(C)C(=O)O)[C@@H]2[C@@H](OC(C)=O)C[C@@H]1C3	MIC	resazurin / absorbance	-	H37Rv	-	-	>50 µg/mL
CCC1COCC1Cc1cncn1C.ON(O)O	MIC bound	BACTEC	-	H37Rv	-	-	>12.5 µg/mL
CCn1cc(C(=O)O)c(=O)c2cc(F)c(N3CCN(C/C(=N/O)c4ccc(Br)cc4)CC3)cc21	MIC	-	-	H37Rv	-	-	>6.25 µg/mL
COc1ccc2c(c1)C(=O)C(Nc1ccc(C=O)cc1)(OC)C(OC)(c1ccc([N+](=O)[O-])cc1)O2	inhibition	BACTEC	-	H37Rv	-	12.5 µg/mL	33%
CCOC(=O)c1c(NC(=O)c2ccccc2)sc2c1CCCC2	MIC	resazurin	-	H37Rv	-	-	>200 µg/mL
COc1cc([C@H]2OC(=O)C3C2C(=O)O[C@@H]3c2cc(OC)c(OC)c(OC)c2)cc(OC)c1OC	MIC bound	BACTEC	-	H37Rv	-	-	>12.5 µg/mL
NNC(=O)c1ccncc1	MIC	resazurin / absorbance	-	H37Ra	-	-	0.0062–0.012 µg/mL
Brc1ccc(-c2nc3sc(-c4ccc5c(c4)OCO5)nn3c2Br)cc1	MIC bound	BACTEC	-	H37Rv	-	-	>12.5 µg/mL
CC1=C(C(=O)Nc2ccc(C)cc2C)C(c2ccccc2)C(C(=O)Nc2ccc(C)cc2C)=C(C)N1	inhibition	-	-	H37Rv	-	2.5 µg/mL	12%
Cc1ccccc1N1CCN(C(=O)c2ccccn2)CC1	MIC bound	resazurin	-	H37Rv	-	-	>6.25 µg/mL
CCN1CCc2c(sc(NC(=O)c3c(F)c(F)c(F)c(F)c3F)c2C#N)C1	MIC	turbidity	-	H37Rv	gyrA mutant (D94N)	-	18 µM

A second listing of 5 rows from above:

{"SMILES": "CCc1nc2ncc(C)cn2c1C(=O)NCc1ccc(N2CCN(S(=O)(=O)C(F)(F)F)C(C3CC3)=N2)cc1", "endpoint": "EC50", "read by": "GFP", "value": "0.0014 µM"}
{"SMILES": "CCC1Cn2cc([N+](=O)[O-])nc2O1", "endpoint": "MIC", "strain or isolate": "H37Rv-T3 (PA-824-resistant)", "value": ">100 µM"}
{"SMILES": "CO/C(=N\\N=C\\c1ccc(Cl)cc1Cl)c1ccncc1", "endpoint": "MIC", "strain or isolate": "H37Rv", "value": ">20 µg/mL"}
{"SMILES": "CC1CCCCN1c1cncc(C(=O)NO)n1", "endpoint": "MIC", "strain or isolate": "Ethionamide-resistant", "value": "122 µg/mL"}
{"SMILES": "COC(=O)c1cncc(N2CC(C)OC(C)C2)n1", "endpoint": "MIC", "strain or isolate": "Isoniazid-resistant", "value": "62.5 µg/mL"}

ECn: concentration that inhibits the pathogen or its effect by n%. a–b is a range or a potency band. MIC50, MIC90 and the like: level of inhibition, or share of isolates inhibited. Lines come from different laboratories, so protocols vary. MIC bound comes from a single tested concentration. Blank or dashed fields: not listed here.